Biological target: LOV-PAS construct of Brucella abortus LOV-HK (residues 15 to 273) (Brucella abortus)
Assay: SEC with static light scattering (SEC-SLS)

For “LOV-PAS construct of Brucella abortus LOV-HK (residues 15 to 273) (domain or fragment)”, the stoichiometry N was 2.
